Among the data in patent US6534530B1, “Antipicornaviral compounds and compositions, their pharmaceutical uses, and materials for their synthesis” (Agouron Pharmaceuticals, Inc., priority 1999, dated 2003) are TI values, retold here.

In the data set the test system is HRV-14. The data set can be described thus: Antirhinoviral H1-HeLa cell culture assay (XTT), HRV-14. Type of data set: cell-based, human rhinovirus. The following applies: CC50/EC50. A general note: Formazan colour is commonly taken as a measure of viable cells.
In turn, `CC(C)C[C@H](NC(=O)OCc1ccccc1)C(=O)N[C@@H](Cc1ccccc1)C(=O)N[C@@H](C[C@@H]1CCNC1=O)C(=O)c1ccccn1` [Compound 23, Cbz-L-Leu-L-Phe-L-[(S)-Pyrrol-Ala]-2-Pyridine] returned a TI of 50. The result for `CC(C)C[C@H](NC(=O)OCc1ccccc1)C(=O)N[C@@H](Cc1ccccc1)C(=O)N[C@@H](C[C@@H]1CCNC1=O)C(=O)c1nccs1` [Compound 22, Cbz-L-Leu-L-Phe-L-[(S)-Pyrrol-Ala]-2-Thiazole] reads 30; that for `CCOC(=O)c1ccc(OCCC2CCN(c3ccc(C)nn3)CC2)cc1` [Pirodavir, reference compound], above 300; that for `CNC(=O)C(=O)[C@H](CNC(C)=O)NC(=O)[C@H](Cc1ccccc1)NC(=O)[C@H](CC(C)C)NC(=O)OCc1ccccc1` [Compound 10, Cbz-L-Leu-L-Phe-L-(N-Ac-amino-Ala)-C(O)NHCH3], above 1. In turn, `Cc1cc(C(=O)N[C@H](C(=O)N[C@@H](Cc2ccc(F)cc2)C(=O)N[C@@H](C[C@@H]2CCNC2=O)C(=O)c2nc3ccccc3s2)C(C)C)no1` [Compound 28, (5-Methylisoxazole-3-carboxyl)-L-Val-L-Phe(4-F)-L-[(S)-Pyrrol-Ala]-2-Benzthiazole] came in with a TI of 749. The result for `Cc1cc(CCCOc2c(C)cc(-c3noc(C(F)(F)F)n3)cc2C)on1` [Pleconaril, reference compound] reads above 1000. The result for `CC(C)C[C@H](NC(=O)OCc1ccccc1)C(=O)N[C@@H](Cc1ccccc1)C(=O)N[C@@H](C[C@@H]1CCNC1=O)C(=O)c1nc2ccccc2s1` [Compound 21, Cbz-L-Leu-L-Phe-L-[(S)-Pyrrol-Ala]-2-Benzthiazole] reads above 100; that for `CC(C)C[C@H](NC(=O)OCc1ccccc1)C(=O)N[C@@H](Cc1ccccc1)C(=O)N[C@@H](CCC(N)=O)C(=O)c1nc2ccccc2s1` [Compound 20, Cbz-L-Leu-L-Phe-L-Gln-2-Benzthiazole], above 6; that for `Cc1cc(CCCCCOc2c(Cl)cc(C3=NCCO3)cc2Cl)on1` [WIN54954, reference compound], above 30. The result for `Cc1cc(CCCCCCCOc2ccc(C3=N[C@@H](C)CO3)cc2)on1` [WIN52084, reference compound] reads above 143; that for `CC(=O)NC[C@@H](NC(=O)[C@H](Cc1ccccc1)NC(=O)[C@H](CC(C)C)NC(=O)OCc1ccccc1)C(=O)C(=O)N1CCCCC1` [Compound 12, Cbz-L-Leu-L-Phe-D-(N-Ac-amino-Ala)-C(O)-Piperidine], 2. `Cc1cc(CCCCCCCOc2ccc(C3=NCCO3)cc2)on1` [WIN51711, reference compound] registered a TI above 77.
